# Data from patent US6703367B1, “Methods for treating hot flashes and gynaecomastia” (Praecis Pharmaceuticals Inc., priority 2001, dated 2004).
# Test system: patients with stage D1 or D2 metastatic prostate cancer or a rising PSA level after local therapy
# Assay: Questionnaire on frequency, severity and duration of hot flashes, 4 weeks of treatment (Example 4)
# Type: in vivo, human
# Details: number of hot flashes/week 0
substance,measurement,value
"Ac-D-Nal^1, 4-Cl-D-Phe^2, D-Pal^3, N-Me-Tyr^5, D-Asn^6, Lys(iPr)^8, D-Ala^10-LHRH [PPI-149]",Occurrence of Hot Flashes: patients with 0 hot flashes/week,61%
